Test results: US7235536B2, “Cellulose sulfate and other sulfated polysaccharides to prevent and treat papilloma virus infection and other infections” (Rush Presbyterian-St. Luke's Medical Center, priority 2000, dated 2007)

Legend:
HPV-11 = experiment: RT-PCR ELISA for transient infection of human A431 cells, HPV-11; assay type: cell-based, human papilloma virus; settings: 1000 μg/ml; no virus
Protocol: Cellulose sulfate and dextran sulfate were each prepared as a 2 mg/ml solution in 0.9% NaCl and tested for microbicidal activity using the in vitro HPV transient infection assay originally described by Smith and colleagues (Smith, L. H., C. Foster, M. E. Hitchcock, and R. Isseroff. 1993. In vitro HPV-11 infection of human foreskin. J. Invest. Dermatol. 101:292-295) with some modifications (Ludmerer, S. W., W. L. McClements, X. M. Wang, J. C. Ling, K. U. Jansen, and N. D. Christensen. 2000. HPV11 mutant virus-like parties elicit immune responses that neutralize virus and delineate a novel neutralizing domain. Virology 266:237-245). An ELISA-based read-out of Optical Density (OD) values using alkaline phosphatase cleavage of the substrate p-nitrophenyl phosphate was also used to measure HPV infection as described below.
A modification of the RT-PCR assay that incorporates an ELISA-based read-out (Boehringer-Mannheim) was also included to assess microbicidal activity. Replicate cell cultures of A431 cells were infected with an aliquot of infectious HPV virions as described above. After 4 days of culture, cells were harvested and RNA extracted. […] Biotinylated products were detected in ELISA with plates coated with streptavidin (to capture the biotinylated target PCR product) then anti-DIG antibody and substrate. […]

β-actin transcripts = experiment: RT-PCR ELISA, β-actin probe control; assay type: cell-based, human

Row | Substance | Mean (SD) of O.D. reading for RT-PCR ELISA, HPV-11 probe (HPV-11) | Mean (SD) of O.D. reading for RT-PCR ELISA, β-actin probe (β-actin transcripts; 10 μg/ml, with virus (HPV-11)) | Mean (SD) of O.D. reading for RT-PCR ELISA, β-actin probe (β-actin transcripts; 100 μg/ml, with virus (HPV-11)) | Mean (SD) of O.D. reading for RT-PCR ELISA, β-actin probe (β-actin transcripts; 1000 μg/ml, no virus) | Mean (SD) of O.D. reading for RT-PCR ELISA, β-actin probe (β-actin transcripts; 1000 μg/ml, with virus (HPV-11))
1 | Dextran sulfate | 0.000 (0.000) O.D. | 1.636 (0.105) O.D. | 1.583 (0.022) O.D. | 1.470 (0.001) O.D. | –
2 | sodium cellulose sulfate | 0.028 (0.004) O.D. | 1.576 (0.021) O.D. | 1.532 (0.025) O.D. | 1.427 (0.013) O.D. | 1.518 (0.020) O.D.
